This series relates to Caco-2 cell monolayers. Nature of the series: Bidirectional (AP→BL, BL→AP) drug transport across Caco-2 cell monolayers in transwells: cumulative transport, Papp, efflux ratio; HPLC or radiolabeled assay. Particulars: individual samples 1-3. (In general: Caco-2 monolayers are a common model of the intestinal barrier.)

Several values for one entry are separate records, joined by “and”; a condition that tells them apart may be missing. Equal entries are not always repeated.

With `CC[C@H](C)[C@H]1O[C@]2(CC[C@@H]1C)C[C@@H]1C[C@@H](C/C=C(\C)[C@@H](O[C@H]3C[C@H](OC)[C@@H](O[C@H]4C[C@H](OC)[C@@H](O)[C@H](C)O4)[C@H](C)O3)[C@@H](C)/C=C/C=C3\CO[C@@H]4[C@H](O)C(C)=C[C@@H](C(=O)O1)[C@]34O)O2` [IVM, ivermectin], the “Efflux ratio ER (PappBA/PappAB)” value (60 min (3600 sec)) is on record as 1.19. Under “180 min”, the “Basal to apical transport (cumulative, receiver)” value was determined as 1.49 pmol.
As for `O=C(C1CCCCC1)N1CC(=O)N2CCc3ccccc3C2C1` (stereo not shown) [PZQ, praziquantel], under “180 min”, the “Apical to basal transport (cumulative, receiver)” value is 26.92 pmol and 26.96 pmol; the “Basal to apical transport (cumulative, receiver)” value turned out to be 22.42 pmol.

(Values after paper PMC5415745, “Drug-transporter mediated interactions between anthelminthic and antiretroviral drugs across the Caco-2 cell monolayers” (BMC Pharmacology & Toxicology, 2017).)
